These are literature values, as cited in patent publication US6559178B1 (priority 2002, dated 2003).

For the data set, the system named is human epidermoid cells, virally infected with HSV-2. The following applies: for protein synthesis inhibition observed: at around 1 ng/ml; for inhibition of hyperactive protein synthesis: by ~5 ng/ml, HSV-2 infected human epidermoid cells.

With Roridin A, the “protein synthesis inhibition observed” value was “almost no protein synthesis inhibition” and the “inhibition of hyperactive protein synthesis” value is on record as 99%.
As to Satratoxin G, the “protein synthesis inhibition observed” value is “almost no protein synthesis inhibition” and the “inhibition of hyperactive protein synthesis” value is recorded as 99%.
